Compound potency records, mixed from different reports. Data source: NIAID ChemDB in PubChem.

Shared fields: cytotoxicity tests; cell line: PBMC; read-out: CC50

Neighbouring rows are from separate reports. CCn: concentration that lowers growth or viability of the cells by n%. Blank or dashed fields: not listed here.

| smiles | method | value |
|---|---|---|
| CNc1ncnc2c1ncn2[C@H]1C=C[C@@H](CO)O1 |  | >100 µM |
| Cc1cc2c(C(C)C)c(O)c(O)cc2c(O)c1-c1c(C)cc2c(C(C)C)c(O)c(O)cc2c1O |  | >100 µM |
| Nc1ccn([C@H]2C=C(F)[C@@H](CO)S2)c(=O)n1 | MTT | >100 µM |
| Nc1nc2c(ncn2[C@H]2CC[C@@H](CO)O2)c(=O)[nH]1 |  | >100 µM |
| Cc1cc(C)cc(Cn2c(=S)ccn(Cc3c(F)cccc3F)c2=O)c1 |  | >336 µM |
| Nc1nc(=O)n([C@H]2C=C[C@@H](CO)C2)cc1F |  | >100 µM |
| CCCCN1C(=O)C(CC2CCCCC2)NC(=O)C12CCN(Cc1ccc3c(c1)OCCO3)CC2 | MTT | 50 µM |
| N#CCn1ccc(=O)n(Cc2ccc3ccccc3c2)c1=O |  | 229 µM |
| Nc1nc2c(ncn2[C@H]2CC[C@@H](CO)O2)c(=O)[nH]1 |  | >100 µM |
| O=c1ccn([C@H]2C=C[C@@H](CO)O2)c(=O)[nH]1 |  | >100 µM |
| CCCC(=O)c1c(O)c(CC2(C)C(=O)C(C(=O)C(C)CC)=C(O)C(C)=C2O)c(O)c(C)c1OC |  | >100 µM |
| COc1cc(OC)nc(N2C(=O)CSC2c2c(Cl)cccc2[N+](=O)[O-])n1 | MTT | 37 µg/mL |
| Nc1ncnc2c1ncn2C1CC(CCP(=O)(O)O)(C(F)(F)F)CO1 | MTT | >100 µM |
| O=c1ccn([C@H]2C=C(F)[C@@H](CO)S2)c(=O)[nH]1 | MTT | >100 µM |
| Cc1cn([C@H]2C[C@H](F)[C@@H](CO)O2)c(=O)[nH]c1=O |  | >50 µM |
| CCN1c2ncccc2N(C)C(=S)c2oc3cccnc3c21 |  | >60 µM |
| Cc1cn([C@H]2C[C@H](N=[N+]=[N-])[C@@H](CO)O2)c(=O)[nH]c1=O |  | 9 µM |
| Cn1c(N)nc2c(ncn2[C@H]2CO[C@@H](CO)O2)c1=O | MTT | >100 µM |
| CC(=O)OC[C@@H]1C=C[C@H](n2cc(F)c(N)nc2=O)O1 | MTT | >100 µM |
| CC(C)CN(C[C@@H](O)[C@H](Cc1ccccc1)NC(=O)[C@H](CC(N)=O)NC(=O)c1ccc2ccccc2n1)C(=O)NC(C)(C)C |  | >100 µg/mL |
| Cc1cc(Cl)nc(C)c1C(=O)NCC[C@@H](C)N1CCC(N(Cc2ccsc2)C(=O)NCCCC(=O)O)CC1 | MTS | >35.5 µM |
| Cc1cn([C@H]2C[C@H](N=[N+]=[N-])[C@@H](CO)O2)c(=O)[nH]c1=O | MTT | 450 µg/mL |
| Nc1ncnc2c1ncn2CCOCP(=O)(O)O | MTT | >100 µM |
| Cc1cn([C@H]2C[C@H](N=[N+]=[N-])[C@@H](CO)O2)c(=O)[nH]c1=O | MTT | >100 µM |
| Cc1cn([C@H]2C=C[C@@H](CO)O2)c(=O)[nH]c1=O |  | 70 µM |
| CC(C)=CCN1Cc2cc(Cl)cc3[nH]c(=S)n(c23)C[C@@H]1C |  | 20 µM |
| O=c1[nH]c(=O)n([C@H]2C[C@H](O)[C@@H](CO)O2)cc1C12B3B4B5B6B(B3B1B42)B1B5C61 |  | >100 µM |
| NC[C@H](Cl)[C@@H](O)c1csc(N)n1 |  | >300 µM |
| Cc1cn([C@H]2C[C@H](N=[N+]=[N-])[C@@H](CO)O2)c(=O)[nH]c1=O |  | 200 µM |
| Nc1nc2c(ncn2[C@H]2CO[C@@H](CO)O2)c(=O)[nH]1 |  | >500 µM |
| Nc1nc2c(ncn2[C@H]2CO[C@@H](CO)O2)c(=O)n1Cc1ccccc1 | MTT | >100 µM |
| Nc1ccn([C@H]2C=C[C@@H](CO)C2)c(=O)n1 |  | >100 µM |
| Cc1cc(C)cc(Cn2c(=O)ccn(CC#N)c2=O)c1 |  | >464 µM |
| O=c1[nH]cnc2c1ncn2[C@@H]1C=C[C@H](CO)O1 |  | 60 µM |
| COC(=O)[C@H](C)NP(=O)(OC[C@H]1O[C@@H](n2cc(C)c(=O)[nH]c2=O)C[C@@H]1N=[N+]=[N-])Oc1ccccc1 |  | >100 µM |
| O=Nc1c(-c2c(O)[nH]c3ccccc23)[nH]c2ccccc12 | MTT | >4 µM |
| Nc1ncc([C@H]2C=C[C@@H](CO)O2)c(=O)[nH]1 |  | >100 µM |
| Cc1cn([C@H]2C[C@H](N=[N+]=[N-])[C@@H](CO)O2)c(=O)[nH]c1=O |  | >0.25 µM |
| Nc1ncnc2c1ncn2C1CC(/C=C/P(=O)(O)O)(C(F)(F)F)CO1 | MTT | >100 µM |
| O=c1ccn(Cc2c(F)cccc2F)c(=O)[nH]1 |  | 197 µM |
| C#C[C@@]1(CO)C=C[C@H](n2cc(C)c(=O)[nH]c2=O)O1 |  | 56 µM |
| N#CCn1ccc(=O)n(Cc2cccc3ccccc23)c1=O |  | 270 µM |
| COc1cc(OC)nc(N2C(=O)CSC2c2c(Cl)cccc2Cl)n1 | MTT | 46 µg/mL |
| Nc1nc2c(ncn2[C@H]2CO[C@@H](CO)O2)c(=O)[nH]1 | MTT | >100 µM |
| Cc1cn([C@H]2C[C@H](F)[C@@H](COP(=O)(O)O)O2)c(=S)[nH]c1=O |  | >200 µM |
| COC(=O)c1ccc([C@H]2OOC3(CCC[C@@H](C)C3)[C@@H](OC)O2)cc1 |  | >100 µM |
| Nc1ncnc2c1ncn2[C@@H]1C=C(F)[C@H](CO)S1 | MTT | >100 µM |
| CC(=O)Oc1c(-c2c(C)cc3c(C(C)C)c(O)c(O)c(C#N)c3c2OC(C)=O)c(C)cc2c(C(C)C)c(O)c(O)c(C#N)c12 |  | >100 µM |
| Nc1nc(NC2CCC2)c2ncn([C@H]3CO[C@@H](CO)O3)c2n1 | MTT | >100 µM |
| Cc1cc2c(C(C)C)c(O)c(O)c(C=NCCO)c2c(O)c1-c1c(C)cc2c(C(C)C)c(O)c(O)c(C=NCCO)c2c1O |  | >100 µM |
| Cc1cn([C@H]2C=C[C@@H](CO)O2)c(=O)[nH]c1=O |  | >10 µM |
| CC(C)(C)NC(=O)C1N(C(=O)[C@@H](O)[C@H](Cc2ccccc2)NC(=O)[C@H](CS(C)(=O)=O)NC(=O)COc2cccc3ccccc23)CSC1(C)C |  | 19 µM |
| S=C(NCCc1ccc(Br)cc1)Nc1ccc(Br)cn1 |  | >100 µM |
| O=c1[nH]c(=O)n([C@H]2C[C@H](O)[C@@H](CO)O2)cc1C12B3B4B5B6B(B3B1B42)B1B5C61 |  | >100 µM |
| Nc1ncnc2c([C@H]3CC[C@](CCP(=O)(O)O)(C(F)(F)F)C3)c[nH]c12 | MTT | >100 µM |
| C[C@@H]1CC[C@H]2[C@@H](C)CCO[C@@H]3OC4(C)CC[C@@H]1C32OO4 |  | >100 µM |
| Cc1cc(C)cc(Cn2c(=O)c(I)cn(Cc3ccccc3)c2=O)c1 |  | 201 µM |
| Cc1cc2c(C(C)C)c(O)c(O)c(C=Nc3ccc(C(=O)O)cc3)c2c(O)c1-c1c(C)cc2c(C(C)C)c(O)c(O)c(C=Nc3ccc(C(=O)O)cc3)c2c1O |  | >100 µM |
| CCCCN1C(=O)[C@@H]([C@H](O)C2CCCCC2)NC(=O)C12CCN(Cc1ccc(Oc3ccc(C(=O)O)cc3)cc1)CC2 | MTT | 50 µM |
| Cc1cn([C@H]2C[C@H](N=[N+]=[N-])[C@@H](CO)O2)c(=O)[nH]c1=O |  | 100 µM |
| O=c1[nH]cnc2c1ncn2[C@@H]1CC[C@H](CO)O1 |  | >100 µM |
| O=c1ccn(Cc2ccccc2)c(=O)[nH]1 |  | 351 µM |
| CCCC(=O)OC[C@@H]1C=C[C@H](n2cc(F)c(N)nc2=O)O1 |  | >100 µM |
| Nc1nc2c(ncn2[C@H]2CO[C@@H](CO)O2)c(=O)[nH]1 |  | >500 µM |
| Nc1nc2c(ncn2[C@H]2C=C(F)[C@@H](CO)S2)c(=O)[nH]1 | MTT | >100 µM |
| Cc1cc2c(C(C)C)c(O)c(O)c(C=NCCS(=O)(=O)O)c2c(O)c1-c1c(C)cc2c(C(C)C)c(O)c(O)c(C=NCCS(=O)(=O)O)c2c1O |  | >100 µM |
| CCCC[C@H]1O[C@@H]2OC3(C)CC[C@H]4[C@H](C)CC[C@@H]([C@H]1C)C24OO3 |  | 1.3 µM |
| CSC[C@H](NC(=O)COc1cccc2ccccc12)C(=O)N[C@@H](Cc1ccccc1)[C@H](O)C(=O)N1CSC(C)(C)[C@H]1C(=O)NC(C)(C)C |  | 8 µM |
| CCc1nc2ccccn2c1C(=O)c1cccs1 | MTT | >100 µM |
| Nc1ncnc2c1ncn2[C@@H]1C=C[C@H](CO)O1 |  | 59 µM |
| CCCCC(=O)OC[C@@H]1C=C[C@H](n2cc(F)c(N)nc2=O)O1 |  | >100 µM |
| CN(C)c1nc(N)nc2c1ncn2[C@H]1CO[C@@H](CO)O1 | MTT | >100 µM |
| Cc1cn([C@H]2C[C@H](N=[N+]=[N-])[C@@H](CO)O2)c(=O)[nH]c1=O | MTT | >100 µM |
| O=c1[nH]cnc2c1ncn2[C@H]1CC[C@@H](CO)O1 |  | >100 µM |
| CNc1ncnc2c1ncn2[C@H]1C=C[C@@H](CO)O1 |  | >100 µM |
| CCc1nc2sccn2c1C(=O)c1ccco1 |  | >100 µM |
| Nc1ccn([C@H]2C=C[C@@H](CO)O2)c(=O)n1 |  | 65 µM |

The last 7 rows once more:

smiles | method | value
CCCCC(=O)OC[C@@H]1C=C[C@H](n2cc(F)c(N)nc2=O)O1 |  | >100 µM
CN(C)c1nc(N)nc2c1ncn2[C@H]1CO[C@@H](CO)O1 | MTT | >100 µM
Cc1cn([C@H]2C[C@H](N=[N+]=[N-])[C@@H](CO)O2)c(=O)[nH]c1=O | MTT | >100 µM
O=c1[nH]cnc2c1ncn2[C@H]1CC[C@@H](CO)O1 |  | >100 µM
CNc1ncnc2c1ncn2[C@H]1C=C[C@@H](CO)O1 |  | >100 µM
CCc1nc2sccn2c1C(=O)c1ccco1 |  | >100 µM
Nc1ccn([C@H]2C=C[C@@H](CO)O2)c(=O)n1 |  | 65 µM